A mixed list of measured activities; the numbers were collected in NIAID ChemDB.

All rows: growth or infection tests; organism: Herpes simplex virus 1; read-out: EC50

ECn is the concentration giving n% inhibition of infection, replication or growth. Lines come from different laboratories, so protocols vary. Blank or dashed fields: not listed here.

| smiles | read by | strain | changes | cells | result |
|---|---|---|---|---|---|
| Nc1nc2c(ncn2CC[C@@H](O)CO)c(=O)[nH]1 | plaque count | C42 | - | SIRC | 2.2 µM |
| OC[C@H]1O[C@@H](c2cc(/C=C/I)c(F)cc2F)C[C@@H]1O | cytopathic effect | F | - | E6SM | 48 µg/mL |
| Nc1nc2c(ncn2COCCO)c(=O)[nH]1 | cytopathic effect | V74140 (acyclovir-susceptible) | - | HFF | 0.5 µg/mL |
| CC1(C)[C@@H](CO)CC[C@@]1(C)Cn1nnc2c(N)ncnc21 | cytopathic effect | KOS | - | E6SM | >400 µg/mL |
| Brc1ccc(-c2cc3c(-c4ccnc(NC5CCC5)n4)ccc(NC4CCC4)n3n2)cc1 | antigen / hybridisation | SC16 | - | VERO 76 | 2.82 µM |
| Nc1ccn([C@@H]2C[C@H](CO)[C@@H](O)[C@H]2O)c(=O)n1 | cytopathic effect | KOS | - | PRK | 100 µg/mL |
| OCCCCn1cc(Cn2ncc3c(NCc4ccccc4)ncnc32)nn1 | - | VWM1837 | - | E6SM | >400 µg/mL |
| C[C@H]1[C@H](O)[C@@H](CO)O[C@H]1n1cc(Cl)c(=O)[nH]c1=O | cytopathic effect | KOS | - | RPMI8226 | >47.4 µg/mL |
| OC[C@H]1O[C@H](c2cc(F)c(F)cc2F)C[C@@H]1O | cytopathic effect | F | - | E6SM | >400 µg/mL |
| O=C(NCc1ccc(Cl)cc1)c1c[nH]c2c(F)cccc2c1=O | plaque count | KOS | - | - | 16 µM |
| CC(NC(=S)Nc1ccc(NC(=O)c2nccc3ccccc23)cc1)c1cc2ccccc2o1 | ELISA | Patton | - | HFF | >10 µg/mL |
| CCCCCCCC/C=C/CCCCCCCC(=O)O | cytopathic effect | HU-10 | - | HEL | >100 µM |
| Cc1cn([C@@H]2O[C@H](CO)[C@H]2CO)c(=O)[nH]c1=O | plaque count | E-377 | - | HFF | 0.05 µg/mL |
| Cc1cn([C@@H]2O[C@H](CO)[C@@H](O)[C@@H]2F)c(=O)[nH]c1=O | plaque count | MGH 10 | - | VERO | 0.8 µM |
| CC(C)NS(=O)(=O)c1ccccc1C(=O)N/N=C/c1ccc(Br)cc1 | cytopathic effect | KOS | - | HEL | >100 µM |
| C[C@H]1[C@H](O)[C@@H](CO)O[C@H]1n1cc(Br)c(N)nc1=O | cytopathic effect | A4-3 | - | RPMI8226 | >84.8 µg/mL |
| OC[C@H]1O[C@@H](c2cc(C#CBr)c(F)cc2F)C[C@@H]1O | cytopathic effect | KOS ACV-R (TK-) | - | E6SM | >400 µg/mL |
| O=c1[nH]c(=O)n([C@H]2C[C@H](O)[C@@H](CO)O2)cc1/C=C/Br | cytopathic effect | HU-3 | - | HEL | 0.042 µM |
| CCCCCCCC/C=C\CCCCCCCOCCCOP(=O)(O)CO[C@H](CO)Cn1cnc2c(N)ncnc21 | hybridisation | - | - | MRC-5 | <0.0025 µM |
| Nc1ccn(C[C@@H](CO)OCP(=O)(O)O)c(=O)n1 | cytopathic effect | KOS | - | HEL | 2 µM |
| Nc1nc2c(ncn2CCCC(CO)CO)c(=O)[nH]1 | plaque count | C42 | - | BHK | 3.2 µM |
| OC[C@H]1O[C@@H](c2cc(C(F)(F)F)c(F)cc2F)C[C@@H]1O | cytopathic effect | VMW 1837 | - | E6SM | >400 µg/mL |
| CCC(C)Oc1ccc(-c2cc3c(-c4ccnc(NC5CCCC5)n4)ccc(NC4CCCC4)n3n2)cc1 | antigen / hybridisation | SC16 | - | VERO 76 | 0.58 µM |
| CC1(C)[C@@H](CO)CC[C@@]1(C)Cn1cc(I)c(=O)[nH]c1=O | cytopathic effect | KOS | - | E6SM | >400 µg/mL |
| Nc1nc2c(ncn2CCC(CO)CO)c(=O)[nH]1 | plaque count | KOS | - | HEL | 1.5 µg/mL |
| Fc1ccc(-c2cc3c(-c4ccnc(NC5CCCC5)n4)ccc(NC4CCCC4)n3n2)cc1 | antigen / hybridisation | SC16 | - | VERO 76 | 0.26 µM |
| C[C@H]1[C@H](O)[C@@H](CO)O[C@H]1n1cc(Cl)c(N)nc1=O | cytopathic effect | KOS | - | RPMI8226 | >100 µg/mL |
| Nc1nc2c(ncn2COC(CO)CO)c(=O)[nH]1 | plaque count | H129 | - | VERO | 0.16 µg/mL |
| Nc1nc2c(ncn2COC(CO)CO)c(=O)[nH]1 | plaque count | F | - | VERO | 0.2 µM |
| Nc1nc2c(ncn2COCCO)c(=O)[nH]1 | cytopathic effect | KOS | - | T-21 | 0.04 µg/mL |
| Nc1nc2c(ncn2[C@H]2C=C[C@@H](CO)[C@H](O)C2)c(=O)[nH]1 | cytopathic effect | VMW1837 (TK-/TK+) | - | E6SM | 0.01 µg/mL |
| Clc1cccc(-c2cc3c(-c4ccnc(NC5CCCC5)n4)ccc(NC4CCCC4)n3n2)c1 | antigen / hybridisation | SC16 | - | VERO 76 | 0.17 µM |
| Nc1nc2c(ncn2[C@@H]2C=C[C@H](CO)[C@@H](O)C2)c(=O)[nH]1 | cytopathic effect | KOS | - | E6SM | 0.002 µg/mL |
| C/C(=N/Nc1nc(-c2ccc(Cl)cc2)cs1)c1ccc(NC(=O)CN2C(=O)c3ccccc3S2(=O)=O)cc1 | cytopathic effect | KOS | TK-deficient acyclovir-resistant | HEL | >20 µM |
| O=c1[nH]c(=O)n([C@H]2C[C@H](O)[C@@H](CO)O2)cc1/C=C/Br | cytopathic effect | KOS | - | PRK | 0.015 µg/mL |
| OC[C@H]1O[C@@H](c2cc(Cl)c(F)cc2F)C[C@@H]1O | cytopathic effect | F | - | E6SM | >400 µg/mL |
| O=c1[nH]c(=O)n([C@H]2C[C@H](O)[C@@H](CO)O2)cc1I | cytopathic effect | KOS | - | PRK | 0.15 µg/mL |
| Nc1ncnc2c1ncn2C[C@@H](CO)OCP(=O)(O)O | plaque count | KOS phosphonoformic acid-resistant | - | WI-38 | <1.6 µM |
| OC[C@H]1O[C@H](c2cc(Br)c(F)cc2F)C[C@@H]1O | cytopathic effect | KOS/ACV-R | - | E6SM | >400 µg/mL |
| Nc1nc2c(ncn2CCC(CO)CO)c(=O)[nH]1 | hybridisation | Clinical isolate | - | MRC-5 | 0.3 µg/mL |
| CNc1ncnc2c1cnn2Cc1cn(CCCCO)nn1 | - | B2006 (TK-) | - | E6SM | >400 µg/mL |
| Nc1ncnc2c1ncn2[C@@H]1C[C@H](CO)[C@@H](O)[C@@H]1O | plaque count | H129 | - | VERO | 8.75 µg/mL |
| Cc1cc([C@@H]2C[C@H](O)[C@@H](CO)O2)c(Cl)cc1F | cytopathic effect | KOS | - | E6SM | >400 µg/mL |
| Nc1ccn([C@@H]2O[C@H](CO)[C@@H](O)[C@@H]2O)c(=O)n1 | cytopathic effect | KOS | - | HEP-2 | 0.2 µg/mL |
| CC1(C)[C@@H](CO)CC[C@@]1(C)Cn1cnc2c(Cl)ncnc21 | cytopathic effect | KOS | - | E6SM | >400 µg/mL |
| c1ccc(-c2cc3c(-c4ccnc(NC5CCCC5)n4)ccc(NC4CCCC4)n3n2)cc1 | antigen / hybridisation | SC16 | - | VERO 76 | 0.62 µM |
| CSc1nnc(-c2ccccc2S(=O)(=O)NC(C)C)o1 | cytopathic effect | KOS | TK-deficient acyclovir-resistant | HEL | >100 µM |
| CCc1cn([C@H]2C[C@H](O)[C@@H](CO)O2)c(=O)[nH]c1=O | cytopathic effect | F | - | PRK | 0.2 µg/mL |
| Nc1ncnc2c1ncn2[C@@H]1O[C@H](CO)[C@@H](O)[C@@H]1O | plaque count | Clinical isolate Wilson | - | MEF | 11 µM |
| CSc1ncnc2c1cnn2Cc1cnnn1CCCCO | - | KOS | - | E6SM | >400 µg/mL |
| O=c1[nH]c(=O)n([C@H]2C[C@H](O)[C@@H](CO)O2)cc1CCCl | cytopathic effect | McIntyre | - | PRK | 0.15 µg/mL |
| Fc1cccc(-c2cc3c(-c4ccnc(NC5CCCC5)n4)ccc(NC4CCCC4)n3n2)c1 | antigen / hybridisation | SC16 | - | VERO 76 | 0.23 µM |
| O=c1[nH]c(=O)n([C@@H]2O[C@H](CO)[C@@H](O)[C@@H]2F)cc1I | cytopathic effect | KOS | - | RPMI8226 | 0.081 µg/mL |
| OC[C@H]1O[C@@H](c2cc(/C=C/Br)c(F)cc2F)C[C@@H]1O | cytopathic effect | McIntyre | - | E6SM | >400 µg/mL |
| O=c1[nH]c(=O)n([C@@H]2O[C@H](CO)[C@@H](O)[C@@H]2O)cc1/C=C/Br | cytopathic effect | KOS | - | HEP-2 | 0.1 µg/mL |
| Oc1ccc(-c2cc3c(-c4ccnc(NC5CCCC5)n4)ccc(NC4CCCC4)n3n2)cc1 | antigen / hybridisation | SC16 | - | VERO 76 | 10.1 µM |
| CC(C)NS(=O)(=O)c1ccccc1-c1n[nH]c(=S)o1 | cytopathic effect | KOS | TK-deficient acyclovir-resistant | HEL | >100 µM |
| CSc1ncnc2c1cnn2Cc1cn(CCCCO)nn1 | - | KOS | - | E6SM | >400 µg/mL |
| CCCCCCCC/C=C/CCCCCCCC(=O)OCC(CO)OCn1cnc2c(=O)[nH]c(N)nc21 | cytopathic effect | HU-10 | - | HEL | >100 µM |
| Cc1cc([C@H]2C[C@H](O)[C@@H](CO)O2)c(F)cc1F | cytopathic effect | KOS/ACV-R | - | E6SM | >400 µg/mL |
| O=C(O)c1cccc(-c2cc3c(-c4ccnc(NC5CCCC5)n4)ccc(NC4CCCC4)n3n2)c1 | antigen / hybridisation | SC16 | - | VERO 76 | 3.08 µM |
| CCCCC(=O)OC[C@H]1O[C@@H](n2cnc3c(N)ncnc32)[C@@H](O)[C@@H]1O | plaque count | E-377 | - | MEF | 12 µM |
| Nc1cc([C@H]2C[C@H](O)[C@@H](CO)O2)c(F)cc1F | cytopathic effect | McIntyre | - | E6SM | >400 µg/mL |
| COc1ccc(-c2cc3c(-c4ccnc(NC5CCCC5)n4)ccc(NC4CCCC4)n3n2)cc1 | antigen / hybridisation | SC16 | - | VERO 76 | 0.22 µM |

Repeating the final 6 entries:

CCCCCCCC/C=C/CCCCCCCC(=O)OCC(CO)OCn1cnc2c(=O)[nH]c(N)nc21 ; read by: cytopathic effect ; strain: HU-10 ; cells: HEL ; result: >100 µM
Cc1cc([C@H]2C[C@H](O)[C@@H](CO)O2)c(F)cc1F ; read by: cytopathic effect ; strain: KOS/ACV-R ; cells: E6SM ; result: >400 µg/mL
O=C(O)c1cccc(-c2cc3c(-c4ccnc(NC5CCCC5)n4)ccc(NC4CCCC4)n3n2)c1 ; read by: antigen / hybridisation ; strain: SC16 ; cells: VERO 76 ; result: 3.08 µM
CCCCC(=O)OC[C@H]1O[C@@H](n2cnc3c(N)ncnc32)[C@@H](O)[C@@H]1O ; read by: plaque count ; strain: E-377 ; cells: MEF ; result: 12 µM
Nc1cc([C@H]2C[C@H](O)[C@@H](CO)O2)c(F)cc1F ; read by: cytopathic effect ; strain: McIntyre ; cells: E6SM ; result: >400 µg/mL
COc1ccc(-c2cc3c(-c4ccnc(NC5CCCC5)n4)ccc(NC4CCCC4)n3n2)cc1 ; read by: antigen / hybridisation ; strain: SC16 ; cells: VERO 76 ; result: 0.22 µM